Pooled drug test results. Numbers come from NIAID ChemDB, via PubChem.

Shared fields: cytotoxicity tests; cells: VERO; measure: CC50

Conditions beyond the fields shown may differ between rows.

SMILES,result
Nc1ccccc1Nc1c([N+](=O)[O-])cc(C(F)(F)F)cc1[N+](=O)[O-],36 µg/mL
COC1/C=C\C2=C[C@]34CN5CCCC/C=C\CCC(=C[C@@H](c6nccc7c6[nH]c6ccccc67)[C@H]3CC5)[C@@H]4N2CCC1,>4.76 µg/mL
COc1ccc(CC(N=Cc2ccc3c(c2)OCO3)C(=O)NC2C(CO)OC(n3cnc4c(N(C)C)ncnc43)C2O)cc1,5.52 µg/mL
O=[N+]([O-])c1c[nH]cc1-c1cc(Cl)cc(Cl)c1,1 µg/mL
N#Cc1c(NC(=O)Nc2ccccc2)nc2[nH]c(=O)[nH]c(=O)c2c1-c1ccc(Br)cc1,80 µg/mL
CCn1cc(C(N)=O)c(=O)c2ccc(-c3cccnc3)cc21,>50 µg/mL
CCc1ccc2c(c1)[nH]c1ccc(C=O)cc12,116 µM
CCCCN(CCCC)CCCOC(=O)c1ccc2oc3ccc(C(=O)OCCCN(CCCC)CCCC)cc3c2c1,>125 µg/mL
c1ccc2c(c1)[nH]c1ccccc12,109 µM
Cc1cccc(/C=N/Nc2cc(C)c3ccccc3n2)n1,7.4 µg/mL
C[C@@H]1CN(CCn2c3ccccc3c3ccccc32)C[C@H](C)N1,44 µM
O=C(NC1N=C(c2ccccc2)c2ccccc2NC1=O)c1cccc(C(F)(F)F)c1,2.5 µM
COc1cc(C)c2sc3ccccc3c(=O)c2c1NCCN(C)C.O=C(O)/C=C/C(=O)O,1.77 µg/mL
O=[N+]([O-])c1c[nH]cc1-c1cccc(Cl)c1Cl,1 µg/mL
CSC(=S)NN=C1CCCC1,12.98 µg/mL
CCN1C[C@]2(CO)CC[C@H](OC)[C@]34C5CC6[C@H](OC)C5[C@](O)(C[C@@H]6OC)[C@@](O)(C13)[C@@H](OC)[C@H]24,32 µg/mL
CC1CCN(SSc2nc3ccccc3s2)CC1,13 µg/mL
Nc1c2c(-c3ccc(Br)cc3)c3c(=O)[nH]c(=O)[nH]c3nc2nc(=O)n1-c1ccccc1,80 µg/mL
CSc1c(C)n([O-])c2cc(Cl)c(Cl)cc2[n+]1=O,3.1 µg/mL
N#Cc1c(N)nc2[nH]c(=O)[nH]c(=O)c2c1-c1cccc([N+](=O)[O-])c1,170 µg/mL
COc1cccc(CNC2N=C(c3ccccc3)c3ccccc3NC2=O)c1,30 µM
CC1=C(/C=C/C(C)=N/NC(=O)c2ccncc2)C(C)(C)CCC1,12 µg/mL
CCOC(=O)c1cn(Cc2ccc(F)cc2)cc1-c1ccc(OC)cc1,2 µg/mL
O=C(NC1N=C(c2ccccc2)c2ccccc2NC1=O)c1ccc([N+](=O)[O-])cc1,2 µM
Cl.FC(F)(F)c1ccc2c(c1)N(CCCNCCN1CCOCC1)c1ccccc1S2,3.1 µg/mL
C=CCn1cc(C(N)=O)c(=O)c2ccc(-c3ccncc3)cc21,>6.25 µg/mL
CN1CSC(=S)N(C)C1,<2.06 µg/mL
COc1ccc(C(=O)NC2N=C(c3ccccc3)c3cc(Cl)ccc3NC2=O)cc1,1.2 µM
CCn1cc(C(N)=O)c(=O)c2ccc(I)cc21,>100 µg/mL
C[C@@]1(CO)[C@H](O)CC[C@@]2(C)[C@H]1CC[C@H]1C[C@@H]3C[C@@]12CC[C@]3(O)CO,50 µg/mL
Cc1sc(N=C(Nc2ccccc2)Nc2ccccc2)nc1-c1ccccc1,6.67 µg/mL
CCn1cc(C(N)=O)c(=O)c2ccc(-c3ccc([N+](=O)[O-])cc3)cc21,>100 µg/mL
OC1CCCN2CCC1O[C@@]13CC[C@@H](OC[C@]45CN6CCCC/C=C\CC[C@](O)(C=C(c7nccc8c7[nH]c7ccccc78)[C@@H]4CC6)C25)[C@@H](O)CCN1C1[C@]2(CN4CCCC/C=C/CC[C@]1(O)C=C(c1nccc5c1[nH]c1ccccc15)[C@@H]2CC4)C3,>4.76 µg/mL
O=[N+]([O-])c1c[nH]cc1-c1ccc(Cl)c(Cl)c1,2 µg/mL
CCOC(=O)NC(C(=O)OCC)(N1CCN(c2cc3c(cc2F)c(=O)c(C(=O)O)cn3CC)CC1)C(F)(F)F,>62.5 µg/mL
COc1cc(C=O)cc2c1[nH]c1ccccc12,>128 µM
CCCn1cc(C(N)=O)c(=O)c2ccc(-c3ccncc3)cc21,>6.25 µg/mL
C/C(=N/NC(=S)N1CCC(C)CC1)c1nccnc1C,0.57 µg/mL
O[C@]12C=C(Cc3cccc4cnccc34)[C@@H]3CCN(CCCC/C=C\CC1)C[C@@]31C[C@@H]3CCCCCCN3C12,>4.76 µg/mL
CCn1cc(C(=O)NCCN)c(=O)c2ccc(-c3ccncc3)cc21,>100 µg/mL
Nc1ccc2nc3ccc(=O)cc-3n(-c3ccccc3)c2c1,2.6 µg/mL
NC(=O)c1cn(-c2ccc(F)cc2)c2cc(Cl)ccc2c1=O,>12.5 µg/mL
Cc1nn(C(=O)c2ccncc2)c(-c2ccccc2)c1N=Nc1nc2ccc([N+](=O)[O-])cc2s1,>10 µg/mL
O[C@]12C=C(c3nccc4c3[nH]c3ccccc34)[C@@H]3CCN(CCCC/C=C\CC1)C[C@@]31CC/C=C\CCCCNC12,>4.76 µg/mL
CCCS(=O)(=O)NC(=O)C1N=C(c2ccccc2)c2ccccc2NC1=O,15 µM
CCn1cc2c(=O)onc-2c2ccc(-c3ccncc3)cc21,>100 µg/mL
O=C(NC1N=C(c2ccccc2)c2ccccc2NC1=O)c1ccc(Br)cc1,5 µM
COc1ccc(-c2c(C#N)c(NC(=S)Nc3ccccc3)nc3[nH]c(=O)[nH]c(=O)c23)c(OC)c1,50 µg/mL
CC(C)C(=O)NC1N=C(c2ccccc2)c2ccccc2NC1=O,2.5 µM
C=Cc1ccc2c(c1)[nH]c1ccccc12,>128 µM
CCCCN(C)CCNc1cc(C)nc(Nc2nc3ccc(Cl)cc3[nH]2)n1,1.89 µg/mL
CCn1cc(C(=O)NCCO)c(=O)c2ccc(-c3ccncc3)cc21,>25 µg/mL
COC1/C=C/OC2(C)Oc3c(C)c(O)c4c(c3C2=O)C(=O)C([N+](=O)[O-])=C(NC(=O)/C(C)=C\C=C\C(C)C(O)C(C)C(O)C(C)C(OC(C)=O)C1C)C4=O,56.96 µg/mL
CCN1C[C@]2(COC)CC[C@H](O)[C@]34C1[C@@](O)([C@@H](OC)[C@H]23)[C@@]1(O)C[C@H](OC)C2C[C@@H]4[C@@H]1[C@H]2OC(C)=O,64 µg/mL

For reference, 5 entries again:

SMILES	result
COc1ccc(-c2c(C#N)c(NC(=S)Nc3ccccc3)nc3[nH]c(=O)[nH]c(=O)c23)c(OC)c1	50 µg/mL
CCc1ccc2c(c1)[nH]c1ccc(C=O)cc12	116 µM
O=C(NC1N=C(c2ccccc2)c2ccccc2NC1=O)c1cccc(C(F)(F)F)c1	2.5 µM
N#Cc1c(NC(=O)Nc2ccccc2)nc2[nH]c(=O)[nH]c(=O)c2c1-c1ccc(Br)cc1	80 µg/mL
C=Cc1ccc2c(c1)[nH]c1ccccc12	>128 µM

CCn: concentration that lowers growth or viability of the cells by n%.